The target of assay [1] is antibody 10-1074. In words: neutralization IC50; higher = virus less sensitive to the antibody. As for the experimental part:
(§1)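 Pseudovirus bearing the Env chain mixed with antibody, from 50 µg/ml in fivefold dilutions, on TZM-bl reporter cells, in duplicate.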

Assay [2] addresses antibody 3BNC117. The description is as above. As to the method:
as §1

Assay [3] deals with antibody 10-1074. In words: neutralization IC80; higher = virus less sensitive to the antibody. As for the experimental part:
as §1

Assay [4] addresses antibody 3BNC117. The assay is described as above. As for the experimental part: as §1

The list shows a part of the results. Env chains of viruses from a treatment-interruption trial, translated from the printed DNA. IC50 / IC80 of two broadly neutralizing antibodies; lower = more sensitive virus; >50 µg/ml means not reached and <0.001 µg/ml is below the lowest dose. No active / inactive call.

B1: HIV-1 Env, reservoir clone (protein)
chain: MRVMGIRKNWQGLWKWGMMLLGMLMICNATEQLWVTVYYGVPVWKEATTTLFCASDAKSYKTEAHNIWATHACVPTDPNPQEINLINVTENFNMWKNDMVEQMHEDIISLWDQSLKPCVKLTPLCVTLQCTNITITINGTDRNLTAEEREEIRNCSYNVTTELKDKKEQIYSLFYRLDITPINENQGKKSRNTITKYRLINCNTSVITQACPKINFDPIPIHYCAPAGFAILKCKDKGFNGTGPCKNVSSVQCTHGIKPVVSTQLLLNGSLAEEEIVIRSENITNNAKNIIVQLVTPVNISCVRPNNNTRKSIRIGPGQSFYANNAIIGDIRQAHCNVSRSEWNNTLQKVVKKLGGLLNKTTIDFKPPSGGDPEIIMHTFNCAGEFFYCNTSGLFNSTWNTTTWNNNSTQVSNGTDSNITLQCRIKQIINMWQGVGKAMYAPPIEGMITCISNITGLILTRDGGARNDSQNETLRPAGGDMRDNWRSELYKYKVVRLEPLGLAPTKARRRVVEREKRAIGLGALFLGFLGAAGSTMGAASLTLTVQARQLLSGIVQQQNNLLRAIEAQQHLLQLTVWGIKQLQARVLAVENYLKDQQLLGIWGCSGKHICTTNVPWNTSWSNKSLSQIWDNMTWNDWEREINNYTGLIYSLIEESQIQQDKNEKELLELDKWASLWNWFKITKWLWYIKIFIMIVGGLIGLRIIFAVLSVVNRVRQGYSPLSFQTLFPASRGPDRPEGIEEEGGEQGRGRSIRLVNGFSALIWDDLRNLILFLYHRLRDLILIATRTVEILGHRGWEAIKYLWNLLLYWIQELKNSAISLYDTLAITVAGWTDRIIEVGQRIGRAVFHIPRRIRQGAERALI
Take B1: the figures for the “neutralization IC50” value in assay [1] and in assay [2] were 0.024 µg/mL and 0.133 µg/mL, respectively. Besides, the “neutralization IC80” value in assay [3] is 0.063 µg/mL; in assay [4], 0.356 µg/mL.

B2: HIV-1 Env, reservoir clone (protein)
chain: MRVMGIRKNWQGLWKWGMMLLGMLMICNATEQLWVTVYYGVPVWKEATTTLFCASDAKSYKTEAHNIWATHACVPTDPNPQEINLINVTENFNMWKNDMVEQMHEDIISLWDQSLKPCVKLTPLCVTLQCTNITITINGTDRNLTAEEREEIRNCSYNVTTELKDKKEQIYSLFYRLDITPINENQDKESRNTITKYRLINCNTSVITQACPKINFDPIPIHYCAPAGFAILKCKDKGFNGTGPCKNVSSVQCTHGIKPVVSTQLLLNGSLAEEEIVIRSENITNNAKNIIVQLVTPVNISCVRPNNNTRKSIRIGPGQSFYANNAIIGDIRQAHCNVSRSEWNNTLQKVVKKLGGLLNKTIIDFKPPSGGDPEIIMHTFNCAGEFFYCNTSGLFNSTWKKFNSTWNTTTWNNNSTQVSNGTDSNITLQCRIKQIINMWQGVGKAMYAPPIEGMITCISNITGLILTRDGARNDSQNETLRPAGGDMRDNWRSELYKYKVVRLEPLGLAPTKARRRVVEREKRAIGLGALFLGFLGAAGSTMGAASLTLTVQARQLLSGIVQQQNNLLRAIEAQQHLLQLTVWGIKQLQARVLAVENYLKDQQLLGIWGCSGKHICTTNVPWNTSWSNKSLSQIWDNMTWNDWEREINNYTGLIYSLIEESQIQQDKNEKELLELDKWASLWNWFKITKWLWYIKIFIMIVGGLIGLRIIFAVLSVVNRVRQGYSPLSFQTLLPASRGPDRPEGIEEEGGEQGRGRSIRLVNGFSALIWDDLRNLILFLYHRLRDLILIATRTVEILGHRGWEAIKYLWNLLLYWIQELKNSAISLYDTLAIAVAGWTDRIIEVGQRIGRAVFHIPRRIRQGAERALI
On to B2, for which the “neutralization IC50” value is 0.043 µg/mL in assay [1] and 1.24 µg/mL in assay [2]. Also, the figures for the “neutralization IC80” value in assay [3] and in assay [4] were 0.11 µg/mL and 5.16 µg/mL, respectively.

B3: HIV-1 Env, reservoir clone (protein)
chain: MRVRGIQRNWQHLWTWWTLTLGLVIICSTSDNLWVTVYYGVPVWEDADTPLFCASDAKAYSTEKHNVWATHACVPTDPNPQELHLENVTEEFNMWKNNMVEQMHEDIISLWDEALKPCVKLTPLCVTLNCVSLNCSSVNKNVTNGNNSTECAEERENLRNCSFNVTTELKDKKEQTYALFYKLDVVQLNSGNNNNNTYRLINCNVSAIKQACPKVTFDPIPIHYCAPAGFAILKCNDKNFNGTGQCHNVSTVLCTHGIKPVVSTQLLLNGSLSEDEIVIKSENITDNAKSIIVQLNSTVSITCSRPNNNTRKSIRIGPGQVFYAQGDIIGDIRQAHCNVSRGNWTKVMQEVKGQLQKIFNKNITFNSSTGGDLEITTHSFNCRGEFFYCNTTGLFDDTLFNNNNTNDTSPITLPCKIKQIVRMWQRVGQAMYAPPIAGEITCISNITGLLLTRDGGNTTNASNETFRPGGGNMRDNWRSELYKYKVVKIKPLGVAPTKARRRVVQREKRAVGLGAVFLGFLGTAGSTMGAASITLTVQVRQLLSGIVQQQSNLLRAIEAQQHLLQLTVWGIKQLQARVLAVERYLKDQQLLGIWGCSGKLICTTNVPWNTSWSNKSYNEIWDNMTWMQWDKEVRNYSQQIYDLIQESQTQQEKNEQELLALDKWTSLWSWFDISSWLWYIKIFIMIVGGLIGLRIVFAVLSIVKRVRQGYSPLSFQTLTHHQREPDRPEGIEEGGGEQDKDRSIRLVSGFLPLAWDDVRSLCLFLYHRLRDFILIAARTLELLGRSCLQGLRLGREGLKYLWNLLVYWGQELKNSAINLFDTAAIVVANWTDRVIEIAQGIGRAILNIPRRIRQGLERALL
Consider B3, for which the “neutralization IC50” value in assay [1] is 0.019 µg/mL; in assay [2], 0.626 µg/mL. Also, the “neutralization IC80” value in assay [3] came to 0.058 µg/mL; in assay [4], 1.58 µg/mL.

B4: HIV-1 Env, reservoir clone (protein)
chain: MRVMGIRKNWQGLWKWGMMLLGMLMICNATEQLWVTVYYGVPVWKEATTTLFCASDAKSYKTEAHNIWATHACVPTDPNPQEINLINVTENFNMWENDMVEQMHEDIISLWDQSLKPCVKLTPLCVTLQCTNITITINGTDRNLTAEEREEIRNCSYNVTTELKDKKEQIYSLFYRLDITPINENQGKESRNTITKYRLINCNTSVITQACPKINFDPIPIHYCAPAGFAILKCKDKGFNGTGPCKNVSSVQCTHGIKPVVSTQLLLNGSLAEEEIVIRSENITNNAKNIIVQLVTPVNISCVRPNNNTRKSIRIGPGQSFYANNAIIGDIRQAHCNVSRSEWNNTLQKVVKKLGGLLNKTTIDFKPPSGGDPEIIMHTFNCAGEFFYCNTSGLFNSTWKKFNSTWNTTTWNNNSTQVSNGTDSNITLQCRIKQIINMWQGVGKAMYAPPIEGMITCISNITGLILTRDGGARNDSQNETLRPAGGDMRDNWRSELYKYKVVRLEPLGLAPTKARRRVVEREKRAIGLGALFLGFLGAAGSTMGAASLTLTVQARQLLSGIVQQQNNLLRAIEAQQHLLQLTVWGIKQLQARVLAVENYLKDQQLLGIWGCSGKHICTTNVPWNTSWSNKSLSQIWDNMTWNDWEREINNYTGLIYSLIEESQIQQDKNEKELLELDKWASLWNWFKITKWLWYIKIFIMIVGGLIGLRIIFAVLSVVNRVRQGYSPLSFQTLLPASRGPDRPEGIEEEGGEQGRGRSIRLVNGFSALIWDDLRNLILFLYHRLRDLILIATRTVEILGHRGWEAIKYLWNLLLYWIQELKNSAISLYDTLAIAVAGWTDRIIEVGQRIGRTVLHIPRRIRQGAERALI
For the molecule B4, the “neutralization IC50” value in assay [1] came out at 0.052 µg/mL; in assay [2], 0.384 µg/mL. The “neutralization IC80” value in assay [3] amounted to 0.192 µg/mL; in assay [4], 1.04 µg/mL.

B5: HIV-1 Env, reservoir clone (protein)
chain: MRVMGIRKNWQGLWKWGMMLLGMLMICNATEQLWVTVYYGVPVWKEATTTLFCASDAKSYKTEAHNIWATHACVPTDPNPQEINLINVTENFNMWKNDMVEQMHEDIISLWDQSLKPCVKLTPLCVTLQCTNITITINGTDRNLTAEEREEIRNCSYNVTTELKDKKEQIYSLFYRLDITPINENQGKESRNTITKYRLINCNTSVITQACPKINFDPIPIHYCAPAGFAILKCKDKGFNGTGPCKNVSSVQCTHGIKPVVSTQLLLNGSLAEEEIVIRSENITNNAKNIIVQLVTPVNISCVRPNNNTRKSIRIGPGQSFYANNAIIGDIRQAHCNVSRSEWNNTLQKVVKKLGGLLNKTTIDFKPPSGGDPEIIMHTFNCAGEFFYCNTSGLFNSTWKKFNSTWNTTTWNNNSTQVSNGTDSNITLQCRIKQIINMWQGVGKAMYAPPIEGMITCISNITGLILARDGGARNDSQNETLRPAGGDMRDNWRSELYKYKVVRLEPLGLAPTKARRRVVEREKRAIGLGALFLGFLGAAGSTMGAASLTLTVQARQLLSGIVQQQNNLLRAIEAQQHLLQLTVWGIKQLQARVLAVENYLKDQQLLGIWGCSGKHICTTNVPWNTSWSNKSLSQIWDNMTWNDWEREINNYTGLIYSLIEESQIQQDKNEKELLELDKWASLWNWFKITKWLWYIKIFIMIVGGLIGLRIIFAVLSVVNRVRQGYSPLSFQTLLPASRGPDRPEGIEEEGGEQGRGRSIRLVNGFSALIWDDLRNLILFLYHRLRDLILIATRTVEILGHRGWEAIKYLWNLLLYWIQELKNSAISLYDTLAIAVAGWTDRIIEVGQRIGRAVFHIPRRIRQGAERALI
Regarding B5, the “neutralization IC50” value in assay [1] was found to be 0.036 µg/mL; in assay [2], 0.341 µg/mL. The “neutralization IC80” value in assay [3] is 0.116 µg/mL; in assay [4], 1.25 µg/mL.

B6: HIV-1 Env, reservoir clone (protein)
chain: MRVMGIRKNWQGLWKWGMMLLGMLMICNATEQLWVTVYYGVPVWKEATTTLFCASDAKSYKTEAHNIWATHACVPTDPNPQEINLINVTENFNMWKNDMVEQMHEDIISLWDQSLKPCVKLTPLCVTLQCTNITITINGTDRNLTAEEREEIRNCSYNVTTELKDKKEQIYSLFYRLDITPINENQGKESRNTITKYRLINCNTSVITQACPKINFDPIPIHYCAPAGFAILKCKDKGFNGTGPCKNVSSVQCTHGIKPVVSTQLLLNGSLAEEEIVIRSENITNNAKNIIVQLVTPVNISCVRPNNNTRKSIRIGPGQSFYANNAIIGDIRQAHCNVSRSEWNNTLQKVVKKLGGLLNKTTIDFKPPSGGDPEIIMHTFNCAGEFFYCNTSGLFNSTWKKFNSTWNTTTWNNNSTQVSNGTDSYITLQCRIKQIINMWQGVGKAMYAPPIEGMITCISNITGLILTRDGGARNGSQNETLRPAGGDMRDNWRSELYKYKVVRLEPLGLAPTKARRRVVEREKRAIGLGALFLGFLGAAGSTMGAASLTLTVQARQLLSGIVQQQNNLLRAIEAQQHLLQLTVWGIKQLQARVLAVENYLKDQQLLGIWGCSGKHICTTNVPWNTSWSNKSLSQIWDNMTWNDWEREINNYTGLIYSLIEESQIQQDKNEKELLELDKWASLWNWFKITKWLWYIKIFIMIVGGLIGLRIIFAVLSVVNRVRQGYSPLSFQTLLPASRGPDRPEGIEEEGGEQGRGRSIRLVNGFSALIWDDLRNLILFLYHRLRDLILIATRTVEILGHRGWEAIKYLWNLLLYWIQELKNSAISLYDTLAIAVAGWTDRIIEVGQRIGRAVFHIPRRIRQGAERALI
For the molecule B6, the “neutralization IC50” value in assay [1] came out at 0.041 µg/mL; in assay [2], 0.161 µg/mL. In addition, the “neutralization IC80” value in assay [3] amounted to 0.116 µg/mL; in assay [4], 0.443 µg/mL.

Values taken from the supplement of paper PMC12637763.
